Assay results from PMC10968383 (Bioengineering, 2024).

B1: A97V (antibody, V domains shown)
VH: EVQLVQSGAEVKKPGATVKMSCKASGYTFTDYYMKWVKQAPGKSLEWIGDINPNNGDTFYNQKFQGRATLTVDKSSNTAYMELSSLRSEDTAVYYCVKPGRTYWGQGTLVTVS
VL: DIVLTQSPDSLAVSLGERVTMSCKSSQSLLDSGNQKNYLVWYQQKPGQPPKLLIYGASTRESGVPDRFTGSGSGTDFTLTISSVQAEDVAVYYCQNDHSYPLTFGAGTKLELK
B2: A16D-A97V (antibody, V domains shown)
VH: B1 VH with A16D
VL: B1 VL
notes: IgG1
B3: 4AA (antibody, V domains shown)
VH: EVQLVQSGAEVKKPGDTVKMSCKASGYTFTDYYMKWVKQAPGKAPGKSLEWIGDINPNNGDTFYNQKFQGRATLTVDKSSNTAYMELSSLRSEDTAVYYCVKPGRTYWGQGTLVTVS
VL: B1 VL
notes: IgG1
B4: A40T (antibody, V domains shown)
VH: B1 VH with A16D, A40T
VL: B1 VL
B5: A40T plus S76I (antibody, V domains shown)
VH: B1 VH with A16D, A40T, S76I
VL: B1 VL
B6: Q39K (antibody, V domains shown)
VH: B1 VH with A16D, Q39K
VL: B1 VL
B7: Q39K plus S76I (antibody, V domains shown)
VH: B1 VH with A16D, Q39K, S76I
VL: B1 VL
B8: S76I (antibody, V domains shown)
VH: B1 VH with A16D, S76I
VL: B1 VL
B9: S76N plus S58N (antibody, V domains shown)
VH: B1 VH with A16D, S76N
VL: B1 VL with S58N
B10: S76N (antibody, V domains shown)
VH: B1 VH with A16D, S76N
VL: B1 VL
B11: W insertion between W104 and G105 (antibody, V domains shown)
VH: EVQLVQSGAEVKKPGDTVKMSCKASGYTFTDYYMKWVKQAPGKSLEWIGDINPNNGDTFYNQKFQGRATLTVDKSSNTAYMELSSLRSEDTAVYYCVKPGRTYWWGQGTLVTVS
VL: B1 VL
B12: A16D (antibody, V domains shown)
VH: B1 VH with A16D, V97A
VL: B1 VL

Experiments:
PrPc-Fc [1] = target: T1, PrPc-Fc (Homo sapiens (Human)., UniProt P04156, biotinylated (for capture on streptavidin biosensors)); settings: both partners purified
PrPc-Fc [2] = target: T1, PrPc-Fc; settings: both partners purified; remark: listed apart in the source
PrPc-Fc [3] = target: T1, PrPc-Fc; settings: both partners purified; remark: listed apart in the source
[4] = target: full-length PrPc displayed on 293T cells (293T-PrPc) (Homo sapiens (Human)., UniProt P04156); settings: one partner purified
PrPc-35aa = PrPc-35aa (Homo sapiens (Human).); experiment: BLI; settings: both partners purified

Row | Binder | Kd (PrPc-Fc [1]) [nM] | koff (PrPc-Fc [2]) [s⁻¹] | kon (PrPc-Fc [2]) [M⁻¹ s⁻¹] | Kd (PrPc-Fc [3]) [nM] | Kd [4] [nM] | Kd (PrPc-35aa) [nM] | Kd (PrPc-Fc [2]) [nM]
1 | B1 | 5.15 | – | – | – | – | – | –
2 | B2 | – | 2.42e-05 | 11700 | 2.06 | 1.01 | 0.113 | –
3 | B3 | – | 2.27e-06 | 11200 | 0.203 | 0.0927 | – | –
4 | B4 | – | 1.48e-05 | 11100 | – | – | – | 1.33
5 | B5 | – | 2.25e-05 | 9090 | – | – | – | 2.47
6 | B6 | – | 3.4e-05 | 10800 | – | – | – | 3.14
7 | B7 | – | 3.72e-05 | 10500 | – | – | – | 3.55
8 | B8 | – | 6.27e-05 | 12900 | – | – | – | 4.86
9 | B9 | – | 8.29e-05 | 12000 | – | – | – | 6.91
10 | B10 | – | 9.18e-05 | 11800 | – | – | – | 7.76
11 | B11 | – | 0.00015 | 4730 | – | – | – | 31.7
12 | B12 | 3.36 | – | – | – | – | – | –

Where a chain is given by its changes, count along the chain named. In names and notes the source's numbering stands. Read-outs that look alike come from different tables or passages of the source.
